Laboratory results from patent US20240059757A1 (VIR BIOTECHNOLOGY, published 2024).
“And” between values parts separate entries of the source, which are not always exact repeats. Equal values may be shown once.

Biological target: T1, SARS-CoV-2 P.1 RBD (SARS-CoV-2 P.1)
T1 construct: domain: RBD
Experiment: ELISA

B1: S2X259 variant antibody, VH SEQ ID NO 459 / VL SEQ ID NO 445 (antibody, V domains shown)
VH: QVQLVQSGAEVKKPGSSVKVSCKASGGIFNTYTISWVRQAPGQGLEWMGRIILMSGKANYAQKIQGRVTITADKSTSTAYMELTSLRSDDTAVYYCARGFNGNYYGWGDDDAFDIWGQGTLVTVSS
VL: QTVLTQPPSVSGAPGQRVTISCTGSNSNIGAGYDVHWYQQLPGTAPKLLIVGNSNRPSGVPDRFSGSKSGTSASLAITGLQAEDEADYYCQSYDSSLSGPNWVFGGGTKLTVL
  IC50: ≥ 0.05 µg/mL and ≤ 0.1 µg/mL
